Laboratory results taken from patent US6197760A (priority 2000, dated 2001).

Tested on: P388 leukemia
Experiment: Evaluation against i.p. implanted P388 leukemia (Table 3)
Assay type: in vivo, murine

CS(=O)(=O)OCCNP(=O)(O)NCCOS(C)(=O)=O gave a log cell kill of 4.8 log.
